Reference: PMC7985570 (Signal Transduction and Targeted Therapy, 2021)

System: SARS-CoV-2 S-G614 pseudovirus
Conditions: CC50 293T-ACE2 vs S-G614 EC50

SMILES	SI (cytotoxicity)
CC1CCN(CC(O)COc2cccc(OCC(O)CN3CCC(C)CC3)c2)CC1 (stereo not shown) [SC171, 3,3'-(1,3-phenylenebis(oxy))bis(1-(4-methylpiperidin-1-yl)propan-2-ol)]	>13.06
COc1ccc2cc1Oc1ccc(cc1)C[C@H]1c3c(cc4c(c3Oc3cc5c(cc3OC)CCN(C)[C@@H]5C2)OCO4)CCN1C [SC9, Cepharanthine]	>158.58
COc1ccc2cc1Oc1ccc(cc1)C[C@H]1c3cc(c(OC)cc3CCN1C)Oc1c(OC)c(OC)c(OC)c3c1[C@H](C2)N(C)CC3 [SC161, Hernandezine]	>448.83
COc1ccc(C[C@@H]2c3cc(Oc4cc(C[C@@H]5c6cc(OC)c(OC)cc6CCN5C)ccc4O)c(OC)cc3CCN2C)cc1 [SC185, Neferine]	>52.87
